A mixed list of measured activities; the numbers were collected in NIAID ChemDB.

All rows: whole-cell or culture tests; organism: HIV-1

An empty or dashed field is not shown. Two numbers with a dash give a range or band. Conditions beyond the fields shown may differ between rows. ECn is the concentration giving n% inhibition of infection, replication or growth.

structure	method	mutations	endpoint	conditions	strain	cell line	result
Nc1ccc(C[C@@H]2[C@H](O)[C@@H](O)[C@@H](Cc3ccc(N)cc3)N(Cc3ccccc3)C(=O)N2Cc2ccccc2)cc1	hybridisation		EC50		RF	MT-2	<1.3 µM
C=CCN(C(=O)NCc1ccc(S(=O)ON(C)C)cc1)C1CCN([C@H]2CN(C(=O)C3CCCC3)C[C@]2(O)c2ccccc2)CC1	p24 / ELISA		EC50			PBMC	<0.005 µM
C=CCn1c(=O)c(C)cn([C@@H]2O[C@H](CO[Si](C)(C)C(C)(C)C)C3(OS(=O)(=O)C=C3N)[C@H]2O[Si](C)(C)C(C)(C)C)c1=O	syncytia		EC50		IIIB	PBL	0.079 µM
O=C(NCc1ccccc1)[C@@H](O)[C@H](O)C(=O)NCc1ccccc1	cytopathic effect / MTT		EC50		Z2Z6	PM1	>100 µM
Cc1cn([C@@H]2O[C@H](CO[Si](C)(C)C(C)(C)C)C3(OS(=O)(=O)C=C3N)[C@H]2O[Si](C)(C)C(C)(C)C)c(=O)n(C)c1=O	syncytia	RT-C181I	EC50		IIIB	CEM	>30 µM
O=c1[nH]cnc2c1ncn2[C@H]1CC[C@@H](CO)O1	RT activity		EC50	chronic infection	IIIB	U-937/HIV-1(IIIB) + U-937	39 µg/mL
CCOCn1c(Cc2cc(C)cc(C)c2)c(CC)c(=O)[nH]c1=O	syncytia	RT-Y181C	EC50		IIIB	CEM	1.2 µM
CCOC(=O)[C@H](Cc1ccc(O)cc1)NC(=O)[C@@H](O)[C@H](O)C(=O)N[C@@H](Cc1ccc(O)cc1)C(=O)OCC	cytopathic effect / MTT		EC50		Z2Z6	PM1	50 µM
CCCCCOC(=O)C[C@H](NP(=O)(CO[C@@H](CF)Cn1ccc2c(=O)[nH]c(N)nc21)Oc1ccccc1)C(=O)OCCCCC	luciferase		EC50		NL4-3	TZM-bl	9.28 µM
COc1cc(C(F)(F)F)cc(S(=O)(=O)c2cccc(N)c2C#N)c1	β-galactosidase	RT-K103N V108I	EC50			HeLa + HELA CD4+	10 µM
Cc1ccnc2c1NC(=O)c1cccnc1N2C1CC1	XTT	RT-V108I	EC50		NL4-3	CEM + CEM-SS	0.06 µM
CC(C)OC(=O)OCOP(=O)(CO[C@H](C)Cn1cnc2c(N)ncnc21)OCOC(=O)OC(C)C	luciferase		EC50		BaL	TZM-bl	0.02 µM
CCCc1cc(=O)oc2c3c(c4c(c12)OC(C)(C)C=C4)O[C@@H](C)[C@H](C)[C@@H]3O	XTT		EC50		IIIB	CEMx174 + CEM	0.15 µM
CC(=O)Oc1c(OC(C)=O)c2c3c(c(-c4c(C)cc5c(C(C)C)c(OC(C)=O)c(OC(C)=O)c6c5c4OC6OC(C)=O)c(C)cc3c1C(C)C)OC2OC(C)=O			EC50		LAV	PBMC	0.93 µM
COC(=O)CCCCCNC(=O)/C=C/c1cn([C@H]2C=C[C@@H](CO)O2)c(=O)[nH]c1=O	RT activity		EC50		IIIB	MT-4	>100 µM
CCCc1cc(=O)oc2c3c(c4c(c12)OC(C)(C)C=C4)O[C@H](C)[C@@H](C)[C@@H]3O	XTT	RT-Y181C	EC50		Nevirapine-resistant (RT Y181C)	CEM + CEM-SS	<0.01 µM
Nc1nc2c(ncn2[C@H]2CC[C@@H](CO)O2)c(=O)o1	RT activity		EC50		IIIB	H9	>500 µg/mL
COc1c(OC)c2c3c(c(-c4c(C)cc5c(C(C)C)c(OC)c(OC)c6c5c4OC6=O)c(C)cc3c1C(C)C)OC2=O			EC50		LAV	PBMC	>100 µM
O=C1N(Cc2ccccc2)[C@H](Cc2ccccc2)[C@H](O)[C@@H](O)[C@@H](Cc2ccccc2)N1Cc1ccccc1	hybridisation		EC50		RF	MT-2	<0.79 µM
N#Cc1cn(C[C@@H](CF)OCP(=O)(O)O)c2nc(N)[nH]c(=O)c12	luciferase		EC50		BaL	PBMC	>100 µM
C=CCN(C(=O)Cc1ccc(S(=O)(=O)N(C)C)cc1)C1CCN(C[C@H]2CN(C(=O)C3CCCC3)C[C@]2(O)c2ccccc2)CC1	p24		EC50			PBMC	<0.005 µM
NCCCCCCNC(=O)/C=C/c1cn([C@H]2C=C[C@@H](CO)O2)c(=O)[nH]c1=O	RT activity		EC50		LAI	CEM + CEM-SS	>100 µM
Cc1cc(Br)cc(S(=O)(=O)c2cccc(N)c2C#N)c1	β-galactosidase	RT-G190A	EC50			HeLa + HELA CD4+	0.03 µM
CCc1c(Sc2ccccc2)n(COCc2ccccc2)c(=O)[nH]c1=O	syncytia	RT-C181I	EC50		IIIB	CEM	0.35 µM
Cc1cn([C@@H]2O[C@H](CO[Si](C)(C)C(C)(C)C)C3(OS(=O)(=O)C=C3N)[C@H]2O[Si](C)(C)C(C)(C)C)c(=O)n(C)c1=O	cytopathic effect	RT-Y181C	EC50		NNRTI-resistant	CEM	>15 µM
CC(=O)Oc1c(-c2c(C)cc3c(C(C)C)c(O)c(O)c(C#N)c3c2OC(C)=O)c(C)cc2c(C(C)C)c(O)c(O)c(C#N)c12			EC50		LAV	PBMC	26.5 µM
Cc1cn([C@H]2C[C@H](N=[N+]=[N-])[C@@H](CO)O2)c(=O)[nH]c1=O	p24		EC50		CC5 Clinical isolates		0.008 µM
Cc1cc(Cl)cc(S(=O)(=O)c2cccc(N)c2C#N)c1	β-galactosidase	RT-K103N P225H	EC50			HeLa + HELA CD4+	19 µM
C=CCN(C(=O)OCc1ccc2c(c1)OCO2)C1CCN([C@H]2CN(C(=O)C3CCCC3)C[C@]2(O)c2ccccc2)CC1	p24 / ELISA		EC50			PBMC	>0.1 µM
O=C1N(CC2CC2)[C@H](Cc2ccccc2)[C@H](O)[C@@H](O)[C@@H](Cc2ccccc2)N1CC1CC1			EC50		RF	MT-2	<1.84 µM
Nc1nc2c(ncn2[C@@H]2C[C@H](COP(=O)(O)O)[C@@H](O)[C@H]2O)c(=O)o1	RT activity		EC50		IIIB	CEM	62 µg/mL
C=CCN(C(=O)OCc1ccc2c(c1)OCO2)C1CCN(C[C@H]2CN(C(=O)C3CCCC3)C[C@]2(O)c2ccccc2)CC1	p24		EC50			PBMC	>0.1 µM
CCOC(=O)[C@H](Cc1ccccc1)NC(=O)[C@@H](O)[C@H](O)C(=O)N[C@@H](Cc1ccccc1)C(=O)OCC	cytopathic effect / MTT		EC50		Z2Z6	PM1	>100 µM
CC(C)(C)[Si](C)(C)OC[C@H]1O[C@@H](n2ccc(=O)[nH]c2=O)[C@H](O[Si](C)(C)C(C)(C)C)C12OS(=O)(=O)C=C2N	p24		EC50		IIIB	PBL	0.156 µM
C=CCN(C(=O)NCc1ccc(F)cc1)C1CCN(C[C@H]2CN(C(=O)C3CCCC3)C[C@]2(O)c2ccccc2)CC1	p24		EC50			PBMC	0.006–0.05 µM
CC(C)Nc1cccnc1N1CCN(C(=O)c2cc3cc(NS(C)(=O)=O)ccc3[nH]2)CC1	cytopathic effect		EC50		IIIB WT	CEM	0.016 µM
CCCCCOC(=O)C[C@H](NP(=O)(CO[C@@H](CF)Cn1ccc2c(=O)[nH]c(N)nc21)N[C@@H](CC(=O)OCCCCC)C(=O)OCCCCC)C(=O)OCCCCC	luciferase		EC50		BaL	PBMC	>4 µM
O=c1[nH]cnc2c1ncn2[C@H]1CC[C@@H](CO)O1	p24	RT-M41L L74V V106A T215F	EC50			C8166	14 µM
Cc1cn([C@@H]2O[C@H](CO)C3(OS(=O)(=O)C=C3N)[C@H]2O[Si](C)(C)C(C)(C)C)c(=O)[nH]c1=O	p24		EC50		IIIB	PBL	>40 µM
Nc1nc2c(ccn2C[C@@H](CF)OCP(=O)(O)O)c(=O)[nH]1	luciferase		EC50		NL4-3	TZM-bl	>100 µM
CCC(C)C(NC(=O)C1CCCN1CC(O)[C@H](Cc1ccccc1)NC(=O)C(CC(N)=O)NC(=O)c1ccc2ccccc2n1)C(=O)NC(Cc1ccccc1)C(=O)NC	cytopathic effect / MTT		EC50		IIIB	CEM	0.16 µM
O=C1N(Cc2ccccc2)[C@H](Cc2ccncc2)[C@H](O)[C@@H](O)[C@@H](Cc2ccncc2)N1Cc1ccccc1	hybridisation		EC50		RF	MT-2	<5.7 µM
Cc1cn([C@H]2C[C@H](N=[N+]=[N-])[C@@H](CO)O2)c(=O)[nH]c1=O	XTT		EC50		IIIB	AA5	0.1 µM
CCOC(=O)[C@H](CC(C)C)NC(=O)[C@@H](O)[C@H](O)C(=O)N[C@@H](CC(C)C)C(=O)OCC	cytopathic effect / MTT		EC50		Z2Z6	PM1	10 µM
Cc1cc2c(C(C)C)c(O)c(O)cc2c(O)c1-c1c(C)cc2c(C(C)C)c(O)c(O)cc2c1O			EC50		LAV	PBMC	0.82 µM
Nc1ccn([C@@H]2CS[C@H](CO)O2)c(=O)n1	cytopathic effect		EC50		IIIB WT	CEM	0.044 µM
Nc1nc2c(ncn2[C@H]2C[C@H](O)[C@@H](CO)O2)c(=O)o1	RT activity		EC50		IIIB	CEM	4.8 µg/mL
CC(C)=CCN1Cc2cccc3[nH]c(=S)n(c23)C[C@@H]1C	XTT	RT-T139I	EC50		Calanolide A-resistant (RT T139I)	CEM + CEM-SS	0.4 µM
CC(C)(C)NC(=O)[C@H]1N(C(=O)[C@@H](O)[C@H](Cc2ccccc2)NC(=O)[C@H](CC(N)=O)NC(=O)COc2cccc3ccccc23)CSC1(C)C	p24		EC50		AZT-sens	PBMC(PHA STIM.) + PBMC	0.13 µM
N#Cc1cn(C[C@H](CF)OCP(=O)(O)O)c2nc(N)[nH]c(=O)c12	luciferase		EC50		BaL	PBMC	>100 µM
O=C(C1CCCC1)N1C[C@H](CN2CCC(N3CC=CN(Cc4ccc(C(F)(F)F)cc4)C3=O)CC2)[C@@](O)(c2ccccc2)C1	p24		EC50			PBMC	>0.1 µM
Nc1nc2c(ncn2[C@H]2C=C[C@@H](CO)O2)c(=O)o1	RT activity		EC50		IIIB	H9	155 µg/mL
CC(=O)c1ccc(C)cc1NC(C(N)=O)c1c(Cl)cccc1Cl	XTT	RT-L100I T139I	EC50		Costatolide-resistant (RT L100I T139I)	CEM + CEM-SS	0.09 µM
CC[C@H](C)[C@H](NC(=O)[C@@H]1CCCN1CC(O)[C@H](Cc1ccccc1)NC(=O)[C@H](CC(N)=O)NC(=O)[C@H](CC(C)C)NC(=O)[C@H](CO)NC(C)=O)C(=O)N[C@H](C(=O)OC)C(C)C	cytopathic effect / MTT		EC50		IIIB	CEM	>10 µM
C=CCN(C(=O)OCc1ccc2nonc2c1)C1CCN([C@H]2CN(C(=O)C3CCCC3)C[C@]2(O)c2ccccc2)CC1	p24 / ELISA		EC50			PBMC	<0.005 µM
CCn1c(=O)c(C)cn([C@@H]2O[C@H](CO[Si](C)(C)C(C)(C)C)C3(OS(=O)(=O)C=C3N)[C@H]2O[Si](C)(C)C(C)(C)C)c1=O	syncytia	RT-C181I	EC50		IIIB	CEM	>75 µM
CCC(C)C(NC(=O)C1CCCN1CC(O)[C@H](Cc1ccccc1)NC(=O)C(CC(N)=O)NC(=O)OCc1ccccc1)C(=O)NC(Cc1ccccc1)C(=O)NC	cytopathic effect / MTT		EC50		IIIB	CEM	0.39 µM
C=CCN(C(=O)OCc1ccc(S(C)(=O)=O)cc1)C1CCN(C[C@H]2CN(C(=O)C3CCCC3)C[C@]2(O)c2ccccc2)CC1	p24		EC50			PBMC	<0.005 µM
O=C1N(Cc2ccccc2)[C@H](Cc2ccc3ccccc3c2)[C@H](O)[C@@H](O)[C@@H](Cc2ccc3ccccc3c2)N1Cc1ccccc1	hybridisation		EC50		RF	MT-2	<3.3 µM
C[C@H](NC[C@@H](O)[C@H](O)CN[C@@H](C)c1ccccc1)c1ccccc1	cytopathic effect / MTT		EC50		Z2Z6	PM1	4 µM
O=C1N(Cc2ccc(CO)cc2)[C@H](Cc2ccncc2)[C@H](O)[C@@H](O)[C@@H](Cc2ccncc2)N1Cc1ccc(CO)cc1	hybridisation		EC90		RF	MT-2	10 µM
CC(C)=CCN1Cc2cc(Cl)cc3[nH]c(=S)n(c23)C[C@@H]1C	syncytia	RT-C181I	EC50		IIIB	CEM	≥15 µM
Cc1cc(O)cc(S(=O)(=O)c2cccc(N)c2C#N)c1	β-galactosidase	RT-V106A	EC50			HeLa + HELA CD4+	0.013 µM

A second listing of 3 rows from above:

structure,method,mutations,endpoint,conditions,strain,cell line,result
C=CCN(C(=O)OCc1ccc(S(C)(=O)=O)cc1)C1CCN(C[C@H]2CN(C(=O)C3CCCC3)C[C@]2(O)c2ccccc2)CC1,p24,,EC50,,,PBMC,<0.005 µM
CCOC(=O)[C@H](Cc1ccc(O)cc1)NC(=O)[C@@H](O)[C@H](O)C(=O)N[C@@H](Cc1ccc(O)cc1)C(=O)OCC,cytopathic effect / MTT,,EC50,,Z2Z6,PM1,50 µM
O=C1N(Cc2ccccc2)[C@H](Cc2ccccc2)[C@H](O)[C@@H](O)[C@@H](Cc2ccccc2)N1Cc1ccccc1,hybridisation,,EC50,,RF,MT-2,<0.79 µM